Results on 4 molecules are retold here after patent publication US12708649B2, “Compositions and methods for improving skin health and for the treatment and prevention of diseases, disorders and conditions associated with fungi and other pathogenic microbes” (priority 2020, dated 2026).

The structures appear in SMILES notation. Where a SMILES comes first, the peptide text is derived from it.

In the first data set the test system is Alcaligenes faecalis DB05646 / Malassezia furfur cultures. The data set is described as follows: Metabolite profile by LC-MS: DB05646 single culture and co-culture with M. furfur. The note with it: DB05646-M. furfur co-culture.
Regarding `NCCCC[C@H](N)C(=O)N1CCC[C@H]1C(=O)O` [Lys-Pro] (H-Lys-Pro-OH), the “Fold of change Coculture vs DB05646” value was 0.4 fold, the “Fold of change Coculture vs M.furfur” value is reported as 1.8 fold and the “Fold of change Coculture vs Media” value was 2.7 fold.

Turning to `NCCCCN` [Putrescine], the “Fold of change Coculture vs DB05646” value was 0.7 fold, the “Fold of change Coculture vs M.furfur” value came to 1.2 fold and the “Fold of change Coculture vs Media” value turned out to be 14.3 fold.

Take `Nc1nc2c(ncn2[C@@H]2O[C@H](CO)[C@@H](O)[C@H]2O)c(=O)[nH]1` [Guanosine]: the “Fold of change Coculture vs DB05646” value was 0.0 fold, the “Fold of change Coculture vs M.furfur” value is listed as 0.0 fold and the “Fold of change Coculture vs Media” value stood at 0.1 fold.

With `CC(=O)N[C@@H](CCCNC(=N)N)C(=O)O` [Acetylarginine], the “Fold of change Coculture vs DB05646” value is listed as 0.8 fold, the “Fold of change Coculture vs M.furfur” value turned out to be 2.2 fold and the “Fold of change Coculture vs Media” value turned out to be 13.6 fold.

The data set is the same for the next values; noted with them: DB05646 single culture, Media 22, 48 hours.
As to `NCCCC[C@H](N)C(=O)N1CCC[C@H]1C(=O)O` [Lys-Pro] (H-Lys-Pro-OH), the “Fold of change DB05646 vs Media” value was 6.2 fold.

`NCCCCN` [Putrescine]: the “Fold of change DB05646 vs Media” value worked out at 19.9 fold.

In the case of `Nc1nc2c(ncn2[C@@H]2O[C@H](CO)[C@@H](O)[C@H]2O)c(=O)[nH]1` [Guanosine], the “Fold of change DB05646 vs Media” value came to 41.6 fold.

Regarding `CC(=O)N[C@@H](CCCNC(=N)N)C(=O)O` [Acetylarginine], the “Fold of change DB05646 vs Media” value is given as 17.5 fold.

The same data set, now with this note: M. furfur single culture.
Turning to `NCCCC[C@H](N)C(=O)N1CCC[C@H]1C(=O)O` [Lys-Pro] (H-Lys-Pro-OH), the “Fold of change M.furfur vs Media” value was 1.5 fold.

For the molecule `NCCCCN` [Putrescine], the “Fold of change M.furfur vs Media” value was found to be 12.1 fold.

With `Nc1nc2c(ncn2[C@@H]2O[C@H](CO)[C@@H](O)[C@H]2O)c(=O)[nH]1` [Guanosine], the “Fold of change M.furfur vs Media” value came to 21.1 fold.

Consider `CC(=O)N[C@@H](CCCNC(=N)N)C(=O)O` [Acetylarginine], for which the “Fold of change M.furfur vs Media” value stood at 6.2 fold.
